Compound potency records, mixed from different reports. Data source: NIAID ChemDB in PubChem.

Common to all: target-level tests; organism: HIV-1; target: Reverse transcriptase

Blank or dashed fields: not listed here. Neighbouring rows are from separate reports. ICn: concentration for n% inhibition.

SMILES,conditions,measure,strain,method,changes,value
Cc1ccc(-n2nnnc2SCC(=O)Nc2ccccc2Cl)c([N+](=O)[O-])c1,-,IC50,-,nucleotide incorporation / radiometric,-,<2 µM
O=C(O)C1CCC(C(=O)OC[C@H]2O[C@@H](n3cc(-c4cccs4)c(=O)[nH]c3=O)C[C@@H]2O)CC1,-,IC50,-,nucleotide incorporation / radiometric,-,140 µg/mL
Cc1c(Cc2ccccc2)nc(NCCCCN)[nH]c1=O,-,Ki,-,-,RT-K103N,>1000 µM
CCc1c(C)[nH]c(=O)c([N+](=O)[O-])c1Sc1cc(C)cc(C)c1,-,IC50,-,nucleotide incorporation,-,0.21 µM
CCn1cc(C(=O)O)c(=O)c2cc(F)c(N3CCN(CN4C(=O)C(=Nc5ccc(S(=O)(=O)Nc6nc(C)cc(C)n6)cc5)c5cc(F)ccc54)C(C)C3)c(F)c21,-,IC50,-,nucleotide incorporation / radiometric,-,20.2 µM
CC1(C)C=C2[C@H]3CC[C@@H]4[C@@]5(C)CC[C@H](O)C(C)(C)[C@@H]5CC[C@@]4(C)[C@]3(C)CC[C@@]2(C)CC1,-,IC50,-,nucleotide incorporation,-,45 µM
O=C(CCSc1nnnn1-c1cccc2ccccc12)Nc1ccccc1[N+](=O)[O-],-,IC50,-,nucleotide incorporation / radiometric,-,<2 µM
Cc1cn(C2OC(CO[Si](C)(C)C(C)(C)C)C3(OS(=O)(=O)C=C3N)C2O[Si](C)(C)C(C)(C)C)c(=O)n(CCCNC(=O)c2ccc(C(=O)c3ccccc3)cc2)c1=O,-,IC50,-,nucleotide incorporation,-,0.5 µM
Cc1cn([C@H]2C[C@H](O)[C@@H](COC(=O)CCCC(=O)O)O2)c(=O)[nH]c1=O,-,IC50,-,nucleotide incorporation / radiometric,-,180 µg/mL
Cc1cn(C2OC(CO[Si](C)(C)C(C)(C)C)C3(OS(=O)(=O)C=C3N)C2O[Si](C)(C)C(C)(C)C)c(=O)n(CC2CO2)c1=O,-,IC50,-,nucleotide incorporation,-,2.4 µM
COc1ccc(-c2c3nc(c(-c4ccc(OC)cc4)c4ccc([nH]4)c(-c4ccc(OC)cc4)c4nc(c(-c5ccc(OC)cc5)c5ccc2[nH]5)C=C4)C=C3)cc1,-,IC50,-,nucleotide incorporation,-,>100 µM
CC(C)C#CC1(C(C)C)NS(=O)(=O)Nc2ccc(Cl)cc21,-,IC50,-,-,-,24.1 µM
O=C(CSc1nnnn1-c1cccc2cnccc12)Nc1ccccc1Cl,-,IC50,-,nucleotide incorporation / radiometric,-,<2 µM
O=P(O)(O)OP(=O)(O)O,-,Ki,-,nucleotide incorporation / radiometric,RT-Y115F,290 µM
O=C(O)CCCCC(=O)OC[C@H]1O[C@@H](n2cc(-c3cccs3)c(=O)[nH]c2=O)C[C@@H]1O,-,IC50,-,nucleotide incorporation / radiometric,-,60 µg/mL
CC(CC12CC3CC(CC(C3)C1)C2)Nc1nc2c([nH]1)c(=O)n(C)c(=O)n2C,-,Ki,-,RT activity / radiometric,-,>200 µM
CCC(C)[C@@H]1N2Cc3c(c4ccccc4n3C(=O)OC(C)(C)C)C1(O)c1c(n(C(=O)OC(C)(C)C)c3ccccc13)C2,-,IC50,-,radiometric,-,~8 µM
Cc1ccc(-n2nnnc2SCC(=O)Nc2ccccc2Cl)cc1,-,IC50,-,nucleotide incorporation / radiometric,-,<2 µM
N#Cc1ccc2[nH]c(C(N)=O)c(S(=O)(=O)N3CCCC3)c2c1,-,IC50,-,scintillation proximity,Y181C,>10 µM
CC(C)c1cnc(C2C=C(c3ccc(O)cc3)N=C(N)S2)cn1,-,IC50,-,RT activity / ELISA / absorbance,-,65.16 µM
C=C(c1cc(OC)cc(OC)c1)c1c(C)c(=O)[nH]c(=O)n1COCc1ccccc1,-,IC50,-,RT activity / fluorescence,-,49.41 µM
Cc1cc(C)cc(S(=O)(=O)c2c(C(=O)NCCO)[nH]c3ccc(Cl)cc23)c1,-,IC50,-,nucleotide incorporation / radiometric,RT-Y188L,>40 µM
Cc1cn([C@H]2C[C@H](F)[C@@H](CO)O2)c(=O)nc1N,-,IC50,-,-,-,0.6 µM
CCOC(=O)c1[nH]c2ccc(Cl)cc2c1Sc1ccccc1N,-,IC50,IIIB,RT activity,-,6.5 µM
CCCCCCCCCCCCCCCC(=O)NC1C(COP(=O)(O)OC2C(O)C(COP(=O)(O)OC3CC(CO)OC3n3cnc4c(N)ncnc43)OC2n2cnc3c(N)ncnc32)OC(n2cnc3c(N)ncnc32)C1O,-,IC50,-,-,-,<100 µM
O=C(Oc1ccc2c(c1OC(=O)c1ccccc1)C(=O)c1ccccc1C2=O)c1ccccc1,-,IC50,-,-,-,12 µM
Nc1ncnc2c1ncn2[C@H]1CC[C@@H](COP(=O)(O)OP(=O)(O)OP(=O)(O)O)O1,-,IC50,-,nucleotide incorporation / radiometric,-,0.023 µg/mL
Cc1ccc(C2=CC(c3cnc(C(C)C)cn3)SC(N)=N2)cc1,-,IC50,-,RT activity / ELISA / absorbance,-,>100 µM
Cc1cccc(Sc2c(C)c[nH]c(=O)c2N)c1,-,IC50,-,nucleotide incorporation,-,>40 µM
COCCn1c(=O)nc(-c2cnc(N3CCN(C)CC3)nc2)c2oc3ccccc3c21,-,IC50,BH10,PicoGreen / fluorescence,-,0.04 µM
C=Cc1cn([C@H]2C[C@H](F)[C@@H](CO)O2)c(=O)[nH]c1=O,-,IC50,-,-,-,0.025 µM
CC(=O)Oc1c(OCC(=O)c2ccc(-c3ccccc3)cc2)ccc2c1C(=O)c1ccccc1C2=O,-,IC50,-,-,K103N,9 µM
O=C(CCSc1nnnn1-c1cccc2ccccc12)Nc1ccccc1Cl,-,IC50,-,nucleotide incorporation / radiometric,-,<2 µM
CC(C)c1cnc(C2C=C(c3cccc(Cl)c3)N=C(N)S2)cn1,-,IC50,-,RT activity / ELISA / absorbance,-,39.15 µM
C=CC(C)(C)c1[nH]c2ccccc2c1C1=C(O)C(=O)C(c2cn3c4c(cccc24)CCC3(C)C)=C(O)C1=O,-,Ki,-,binding,-,1.5 µM
O=C(O)CCCC(=O)OC[C@H]1O[C@@H](n2cc(-c3cccs3)c(=O)[nH]c2=O)C[C@@H]1O,-,IC50,-,nucleotide incorporation / radiometric,-,33 µg/mL
CC(=O)Nc1cc2c(cc1OC(F)(F)F)CCN(c1nn3c(C)nnc3c3ccccc13)C2,-,IC90,IIIB,RT activity / fluorescence,-,0.95 µM
Cc1cn(C2OC(CO[Si](C)(C)C(C)(C)C)C3(OS(=O)(=O)C=C3N)C2O[Si](C)(C)C(C)(C)C)c(=O)n(/C=C\CO)c1=O,-,IC50,-,nucleotide incorporation,-,1.6 µM
CC(=O)OC[C@]1(C)CC[C@]2(C)CC[C@]3(C)c4ccc5c(c4CC[C@@]3(C)[C@@H]2C1)CC[C@@H](OC(C)=O)C5(C)C,-,IC50,-,nucleotide incorporation,-,3.3 µM
O=C1c2ccccc2C(=O)c2c1ccc1[nH]c(CNCCCCCCCCN3[C@@H](CO)[C@@H](O)[C@H](O)[C@@H]3CO)nc21,-,IC50,-,RT activity / absorbance,-,36.31 µM
O=c1[nH]c(=O)n([C@H]2C[C@H](O)[C@@H](CO)O2)cc1-c1cccs1,-,IC50,-,nucleotide incorporation / radiometric,-,>300 µg/mL
CCOC(=O)c1[nH]c2ccc(Cl)cc2c1Sc1cc(Cl)ccc1N,-,IC50,IIIB,RT activity,-,7 µM
COC(=O)c1sccc1NC(=O)CSc1nnnn1-c1c(C)cc(C)cc1C,-,IC50,-,nucleotide incorporation / radiometric,-,<2 µM
Cc1c(Cc2ccccc2)nc(SCCCCO)[nH]c1=O,-,Ki,-,-,RT-Y188L,58 µM
O=c1[nH]c(=O)n([C@H]2C[C@H](F)[C@@H](CO)O2)cc1/C=C/Br,-,IC50,-,-,-,0.015 µM
CN(CC(=O)Nc1ccccc1[N+](=O)[O-])c1nnnn1-c1cccc2ccccc12,-,IC50,-,nucleotide incorporation / radiometric,-,<2 µM
COc1cccc(-c2nnc3c4ccccc4c(N4CCc5ccccc5C4)nn23)c1,-,IC50,IIIB,RT activity / fluorescence,-,88.3 µM
CC(C)c1cnc(C2C=C(c3ccccc3[N+](=O)[O-])N=C(N)S2)cn1,-,IC50,-,RT activity / ELISA / absorbance,-,8.14 µM
Nc1cc(OC[C@H]2CC[C@@H](COP(=O)([O-])OP(=O)([O-])OP(=O)([O-])O)O2)nc(N)n1,Mn2+,IC50,-,nucleotide incorporation / radiometric,-,352 µM
CC(C)c1cnc(C2C=C(c3cccc(F)c3)N=C(N)S2)cn1,-,IC50,-,RT activity / ELISA / absorbance,-,21.11 µM
CC(=O)Oc1c(OC(C)C(C)=O)ccc2c1C(=O)c1ccccc1C2=O,-,IC50,-,-,-,61 µM
Nc1ccc2c(c1)CN(c1nn3c(C(F)F)nnc3c3ccccc13)CC2,-,IC50,98US_MSC5016,RT activity / fluorescence,-,1.09 µM
Cc1cn([C@H]2C[C@H](F)[C@@H](CO)O2)c(=O)[nH]c1=O,-,IC50,-,-,-,0.05 µM
COc1ccccc1C1=CC(c2cnc(C(C)C)cn2)SC(N)=N1,-,IC50,-,RT activity / ELISA / absorbance,-,>100 µM
O=C1c2ccccc2C(=O)c2c1ccc1[nH]c(CNCCN3[C@@H](CO)[C@@H](O)[C@H](O)[C@@H]3CO)nc21,-,IC50,-,RT activity / absorbance,-,24.54 µM
c1ccc2c(c1)CCN(c1nn3c(C4CC4)nnc3c3ccccc13)C2,-,IC90,IIIB,RT activity / fluorescence,-,2.68 µM
O=c1cc(Cc2ccccc2)nc(NCCCCO)[nH]1,-,Ki,-,-,RT-V106A,75 µM
O=C1c2ccccc2C(=O)c2c1ccc1[nH]c(CNCCCN3[C@@H](CO)[C@@H](O)[C@H](O)[C@@H]3CO)nc21,-,IC50,-,RT activity / absorbance,-,27.78 µM
CCCCCCCCCCCCCCCC(=O)NC1C(COP(=O)(O)OC2CC(COP(=O)(O)OC3C(O)C(CO)OC3n3cnc4c(N)ncnc43)OC2n2cnc3c(N)ncnc32)OC(n2cnc3c(N)ncnc32)C1O,-,IC50,-,-,-,100 µM
C=C1CC[C@@]2(C)[C@@H]([C@@H]1C)[C@H]1CCC3[C@@]4(C)CC[C@H](O)C(C)(C)[C@@H]4CC[C@@]3(C)[C@]1(C)C[C@@H]2O,-,IC50,-,nucleotide incorporation,-,20 µM
Cc1cc(C)c(-n2nnnc2SCC(=O)Nc2cccc(Cl)c2C#N)c(C)c1,-,IC50,-,nucleotide incorporation / radiometric,-,<2 µM